Anti-infective test results gathered from many reports (values: NIAID ChemDB through PubChem).

Shared fields: tests in culture; agent: HIV-1; cells: C8166; endpoint: EC50

An empty or dashed field is not shown. ECn: concentration that inhibits the pathogen or its effect by n%. Two numbers with a dash give a range or band. Rows are shuffled and stem from different studies.

smiles | strain | mutations | read by | value
CC1=C[C@H]2[C@@]3(O)[C@H](C)[C@@H](OC(=O)CCCCC4SCC5NC(=O)NC54)[C@]4(O)[C@H]([C@@H]3C=C(CO)C[C@]2(O)C1=O)C4(C)C | IIIB |  | p24 / ELISA | >200 µM
Cc1nc2ccc(Cl)cc2c(-c2ccc(C(C)(C)C)cc2)c1C(OC(C)C)C(=O)O |  |  | luciferase / reporter gene | <20 µM
CC/C=C\C/C=C\C/C=C\C/C=C\C/C=C\C/C=C\CCC(=O)O[C@@]12[C@H](O)[C@@H](C)[C@@]3(O)[C@@H](C=C(CO)C[C@]4(O)C(=O)C(C)=C[C@@H]34)[C@@H]1C2(C)C | IIIB |  | p24 / ELISA | 0.0951 µM
CCN1c2ncc(CCOc3ccc(-c4ccccn4)cc3C)cc2C(=O)N(C)c2cccnc21 |  | RT-K103N Y181C | p24 | <0.01 µM
C=CCC(C(=O)O)c1c(C)nc2ccc(Cl)cc2c1-c1ccc(Cl)cc1 |  |  | luciferase / reporter gene | <20 µM
COc1ccc(/C=C/C(=O)O[C@@H]2[C@@H](C)[C@@]3(O)[C@@H](C=C(CO)C[C@]4(O)C(=O)C(C)=C[C@@H]34)[C@@H]3C(C)(C)[C@]23OC(C)=O)cc1 | IIIB |  | p24 / ELISA | 0.047 µM
Cc1nc2ccccc2c(-c2ccc(Cl)cc2)c1C(OC(C)(C)C)C(=O)O |  |  | luciferase / reporter gene | <20 µM
CCN1c2ncc(CCOc3ccc(-c4cc(C(=O)O)ccc4C)cc3C)cc2C(=O)N(C)c2cccnc21 |  | RT-K103N Y181C | p24 | 0.01–0.05 µM
CC(=O)O[C@@]12[C@H](OC(=O)CCCCCCCBr)[C@@H](C)[C@@]3(O)[C@@H](C=C(CO)C[C@]4(O)C(=O)C(C)=C[C@@H]34)[C@@H]1C2(C)C | IIIB |  | p24 / ELISA | 0.0335 µM
CCN1c2ncc(CCOc3ccc(C(=O)NS(=O)(=O)c4ccccc4)cc3C)cc2C(=O)N(C)c2cccnc21 |  | RT-K103N Y181C | p24 | >0.05 µM
CCCCCCCCC(=O)O[C@@H]1[C@@H](C)[C@@]2(O)[C@@H](C=C(CO)C[C@]3(O)C(=O)C(C)=C[C@@H]23)[C@@H]2C(C)(C)[C@]12OC(=O)CCCCCCCC | IIIB |  | syncytia / visual reading | 0.0052 µM
CCc1ccc(-c2c(C(OC(C)C)C(=O)O)c(C)nc3ccc(Cl)cc23)cc1 |  |  | luciferase / reporter gene | <20 µM
CCN1c2ncc(CCOc3ccc(Nc4nc(C(=O)O)cs4)cc3C)cc2C(=O)N(C)c2cccnc21 | IIIB |  | p24 | <0.01 µM
CC(C)=CCOC(C(=O)O)c1c(C)nc2ccc(Br)cc2c1-c1ccc(Cl)cc1 |  |  | luciferase / reporter gene | <20 µM
CCN1c2ncc(CCOc3ccc(-c4ccc(C(=O)O)cc4)c(Cl)c3)cc2C(=O)N(C)c2cccnc21 |  | RT-K103N Y181C | p24 | >0.05 µM
CCN1C(=O)NC(=O)C(C(C)C)C1CC1CC(C)CC(C#N)C1=O | A17 |  | p24 / ELISA | 1.57 µM